Measured values from several laboratories, pooled; numbers as filed in NIAID ChemDB.

All rows: growth or infection tests; agent: Aspergillus flavus

A number after MIC or MFC names an inhibition level or a share of isolates. Blank or dashed fields: not listed here. Neighbouring rows are from separate reports.

compound | setting | read by | strain or isolate | read-out | result
C[C@H]1[C@H](O)[C@@H](C)/C=C/C=C/C=C/C=C/C=C/C=C/C=C/[C@H](O[C@@H]2O[C@H](C)[C@@H](O)[C@H](N)[C@@H]2O)C[C@@H]2O[C@](O)(C[C@@H](O)C[C@@H](O)CC[C@H](O)[C@@H](O)C[C@@H](O)CC(=O)O[C@H]1C)C[C@H](O)[C@H]2C(=O)O |  | visual reading | ATCC 11496 | MFC | 4 µg/mL
CS(=O)(=O)N1CCC(n2cc(-c3nc(-c4ccccc4)n[nH]3)nn2)CC1 |  | agar |  | MIC | 30 µg/mL
C[C@@H](c1ncncc1F)[C@](O)(Cn1cncn1)c1ccc(F)cc1F |  | broth dilution |  | MIC50 | 2 µg/mL
O=C1CSC2(CCc3ccccc32)N1n1c(-c2ccc(Cl)cc2)n[nH]c1=S |  |  |  | MIC100 | 12.5 µg/mL
COc1ccc(-c2n[nH]c(COc3nc(C)nc4ccccc34)n2)cc1 |  |  | MTCC 277 | MIC100 | 50 µg/mL
O=c1c(/C=C/c2cccs2)n[nH]c(=S)n1NC=Nc1ccc(S(=O)(=O)Nc2ncccn2)cc1 |  | agar |  | MIC90 | 146 µg/mL
c1ccc(C(c2ccccc2)n2cncn2)cc1 |  | broth dilution |  | MFC | 64 µg/mL
O=c1[nH][nH]c2c1C(c1ccccc1)CC(Cc1ccc3ccccc3c1)=C2 |  | agar diffusion |  | MIC | 100 µg/mL
CCN=C1NN(C(=O)c2cc(=O)oc3cc(OCC)ccc23)C(c2cc3ccccc3oc2=O)=CS1 |  | broth dilution |  | MIC50 | 0.01 µg/mL
Cc1nc(OCc2nc(-c3ccc(O)cc3)n[nH]2)c2ccccc2n1 |  |  | MTCC 277 | MIC100 | 25 µg/mL
O=C1CSC2(CCc3ccccc32)N1n1c(COc2ccc(Cl)cc2)n[nH]c1=S |  |  |  | MIC100 | 12.5 µg/mL
CC(C)CC(O)C(=O)O |  | broth dilution / visual reading | ATCC 204304 | MFC100 | >72000 µg/mL
Cc1ccc(C2CC(Cc3ccc(CC(C)C)cc3)=Cc3[nH][nH]c(=O)c32)cc1 |  | agar diffusion |  | MIC | 50 µg/mL
CC(=O)N1CCN(c2ccc(OC[C@H]3CO[C@](Cn4ccnc4)(c4ccc(Cl)cc4Cl)O3)cc2)CC1 |  |  | Species complex | MIC50 | 1 µg/mL
O=C(c1ccccc1)N1CCC(n2cc(-c3nc(-c4ccccc4)n[nH]3)nn2)CC1 |  | agar |  | MIC | 160 µg/mL
CCC(C)CC(C)CCCCCCCCC(=O)N[C@H]1C[C@@H](O)[C@H](NCCN)NC(=O)[C@@H]2[C@@H](O)CCN2C(=O)[C@H]([C@H](O)CCN)NC(=O)[C@H]([C@H](O)[C@@H](O)c2ccc(O)cc2)NC(=O)[C@@H]2C[C@@H](O)CN2C(=O)[C@H]([C@@H](C)O)NC1=O |  | broth dilution |  | MEC | 0.06 µg/mL
CCCCCCCCCCCCOC(=O)[C@]1(O)C[C@@H](O)[C@@H](O)[C@H](OC(=O)/C=C/c2ccc(O)c(O)c2)C1 |  | absorbance | AMP 9 | MIC80 | >1500 µg/mL
CC(C)C[C@H](N)C(=O)O |  | broth dilution | ATCC 204304 | MFC100 | >18000 µg/mL
O=C(Cc1cc(=O)oc2cc(O)ccc12)N1NC(=Nc2ccccc2)SC=C1c1cc2ccccc2oc1=O |  | broth dilution |  | MIC50 | 0.1 µg/mL
Nc1ncccc1-c1cc(Cc2ccc(COc3ccccn3)cc2)no1 | 30% human serum | broth dilution | IFM50915 | MIC50 | 0.5 µg/mL
c1ccc(-c2n[nH]c(COc3ncnc4ccccc34)n2)cc1 |  |  | MTCC 277 | MIC100 | 50 µg/mL
O=C1CSC2(CCc3ccccc32)N1n1c(COc2ccc(Cl)cc2Cl)n[nH]c1=S |  |  |  | MIC100 | 12.5 µg/mL
CCN=C1NN(C(=O)Cc2cc(=O)oc3cc(O)ccc23)C(c2c(O)c3ccccc3oc2=O)=CS1 |  | broth dilution |  | MIC50 | 1 µg/mL
CC1/C=C/C=C/C=C/C=C/C(O[C@@H]2O[C@H](C)[C@@H](O)[C@H](N)[C@@H]2O)CC2OC(O)(CC(O)CC(O)C(O)/C=C/C(=O)OC1C)CC(O)C2C(=O)O |  | broth dilution | CGMCC 3.289 | MIC100 | 25 µg/mL
CC(C)Cc1ccc(CC2=Cc3[nH][nH]c(=O)c3C(c3ccccc3)C2)cc1 |  | agar diffusion |  | MIC | 100 µg/mL
CCOc1ccc2c(C(=O)N3NC(=NC)SC=C3c3c(O)c4ccccc4oc3=O)cc(=O)oc2c1 |  | broth dilution |  | MIC50 | 1 µg/mL
Cc1ccc(C2CC(Cc3ccc4ccccc4c3)=Cc3[nH][nH]c(=O)c32)cc1 |  | agar diffusion |  | MIC | 50 µg/mL
c1csc(-c2n[nH]c(COc3ncnc4ccccc34)n2)c1 |  |  | MTCC 277 | MIC100 | 12.5 µg/mL
CC(C)(C)OC(=O)N1CCC(n2cc(-c3nc(-c4ccccc4)n[nH]3)nn2)CC1 |  | agar |  | MIC | 120 µg/mL
COc1ccc(C(c2ccc(OC)cc2)n2cncn2)cc1 |  | broth dilution |  | MFC | >256 µg/mL
CCN1CCC(n2cc(-c3nc(-c4ccc(OC)cc4)n[nH]3)nn2)CC1 |  | agar |  | MIC | 70 µg/mL
CCC1/C=C/C=C/C=C/C=C/C(OC2OC(C)C(O)C(N)C2O)CC2OC(O)(CC(O)CC(O)C(O)/C=C/C(=O)OC1C)CC(O)C2C(=O)O |  | broth dilution | CGMCC 3.289 | MFC | 12.56 µg/mL
c1ccc(C(c2ccccc2)n2nnc3ccccc32)cc1 |  | broth dilution |  | MFC | >256 µg/mL
O=C1CSC2(CCc3ccccc32)N1n1c(-c2ccc([N+](=O)[O-])cc2)n[nH]c1=S |  |  |  | MIC100 | 12.5 µg/mL
Clc1ccc(C(c2ccccc2)n2cnc3ccccc32)cc1 |  | broth dilution |  | MFC | >256 µg/mL
Cc1nc(OCc2nc(-c3cccs3)n[nH]2)c2ccccc2n1 |  |  | MTCC 277 | MIC100 | 25 µg/mL
Clc1ccc(C(c2ccccc2)n2ccnc2)cc1 |  | broth dilution |  | MFC | 0.5 µg/mL
CS(=O)(=O)N1CCC(n2cc(-c3nc(-c4ccc(Cl)cc4)n[nH]3)nn2)CC1 |  | agar |  | MIC | 20 µg/mL

For reference, 5 entries again:

| compound | setting | read by | strain or isolate | read-out | result |
|---|---|---|---|---|---|
| Nc1ncccc1-c1cc(Cc2ccc(COc3ccccn3)cc2)no1 | 30% human serum | broth dilution | IFM50915 | MIC50 | 0.5 µg/mL |
| CS(=O)(=O)N1CCC(n2cc(-c3nc(-c4ccc(Cl)cc4)n[nH]3)nn2)CC1 |  | agar |  | MIC | 20 µg/mL |
| Clc1ccc(C(c2ccccc2)n2cnc3ccccc32)cc1 |  | broth dilution |  | MFC | >256 µg/mL |
| O=C1CSC2(CCc3ccccc32)N1n1c(-c2ccc([N+](=O)[O-])cc2)n[nH]c1=S |  |  |  | MIC100 | 12.5 µg/mL |
| Cc1ccc(C2CC(Cc3ccc(CC(C)C)cc3)=Cc3[nH][nH]c(=O)c32)cc1 |  | agar diffusion |  | MIC | 50 µg/mL |